The supplement of paper PMC9931576
Human monoclonal antibodies against the spike receptor-binding domain (heavy:light variable regions). IC50 against pseudoviruses bearing the spike of naturally observed variants; lower = stronger; >10 µg/ml means not reached at the top dose. No active / inactive call. The stated detection limit is 0.0005 µg/ml; values near or below 0.001 µg/ml lie at the floor of the assay.

How the values were obtained:
Experiment in all cases: pseudovirus neutralization IC50; higher = weaker neutralization
[1] = target: SARS-CoV-2 Omicron BA.1 spike pseudovirus
Procedure: (§1)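 Single-round VSV luciferase pseudovirus mixed with antibody dilutions for 1 h and put on Huh-7 cells for about a day; IC50 from the dose curve.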

[2] = target: SARS-CoV-2 Omicron BA.2 spike pseudovirus
Procedure: as §1

[3] = target: SARS-CoV-2 Omicron BA.2.75 spike pseudovirus
Procedure: as §1

[4] = target: SARS-CoV-2 Omicron BA.5 spike pseudovirus
Procedure: as §1

[5] = target: SARS-CoV-2 Omicron BQ.1.1 spike pseudovirus
Procedure: as §1

[6] = target: SARS-CoV-2 Omicron XBB spike pseudovirus
Procedure: as §1

[7] = target: SARS-CoV-2 early D614G spike pseudovirus
Procedure: as §1

| Binder | pseudovirus neutralization IC50 [1] [µg/mL] | pseudovirus neutralization IC50 [2] [µg/mL] | pseudovirus neutralization IC50 [3] [µg/mL] | pseudovirus neutralization IC50 [4] [µg/mL] | pseudovirus neutralization IC50 [5] [µg/mL] | pseudovirus neutralization IC50 [6] [µg/mL] | pseudovirus neutralization IC50 [7] [µg/mL] |
| --- | --- | --- | --- | --- | --- | --- | --- |
| BD55-6392 (protein) chain 1: EVQLLESGGGLVQPGGSLRLSCAASGFSFSGYAMSWVRQAPGKGLELVSTISSSGTKTYYADSVKGRFAISRENSKNTLFLQMNSLRAEDTAVYYCAKEEGGGWPGFDHWGQGALVTVSS chain 2: QSVLTQPPSASGTPGQRVTISCSGSVYNIGNNFVYWYQQLPGTAPKLLIYRNDQRPSGVPDRFSGSKSGTSASLAISGLRPEDEADYYCAAWDDSLRVFGGGTKLTVL | > 10 | > 10 | > 10 | > 10 | > 10 | > 10 | 0.384 |
| BD55-6401 (protein) chain 1: QVQLVQSGSELKKPGASVKVSCKTSGYIFTNYAINWVRQAPGQGLEWMGWIDTNTGNPTSARDFTGRFVFSLDTSVSTAYLQINGLEPEDTAVYYCARADRNYFGYERFDIWGQGTMVIVSS chain 2: DIQMTQSPSSLSASVGDRVTITCRASQSISDYVNWYQQKPGKAPKVLIYAASNLQSGVPSRFSGRGSGTDFTLTITSLQPEDFATYYCQQTYSSHLLSFGGGTKLEIK | 1.55 | 1.34 | 1.08 | 2.01 | 1.53 | 2.54 | 7.52 |
| BD55-6398 (protein) chain 1: QVPLQESGPGLVKPSETLSLTCTVSGGSINSYYWNWIRQAPGKGLEWIGNIYYSGSTSYNPSLKSRVTISVDTSKNQFSLKLTSVTAADTAVYYCARGGFYDPYYFDSWGQGTLVTVSS chain 2: SFELTQPPSVSVSPGQTARITCSANALPMQYAYWYQQKPGQAPVLVIYKDIERASGIPERFSGSSSGATVTLTISGVQAEDEADYYCQSPDSSGSYVVFGGGTKVTVL | > 10 | > 10 | > 10 | > 10 | > 10 | > 10 | > 10 |
| BD55-6409 (protein) chain 1: QVQVVQSESELKKPGASVKISCKASGYTFTSYAMNWVRQAPGQGLEWMGWINTDTGNPTYAQGFTGRFFFSWDTSVSTAYLHISGLKAEDTAVYYCARADRDYYGYESFDIWGQGTMVTVSS chain 2: DIQMTQSPSSLSASVGDRVTITCRASQSISNYLNWYQQKSGKAPKVLIYAASTLRSGVPSRFSGSGSGTDFTLTISSLQPEDFATYYCQQTYSSHLLTFGGGTKV | > 10 | > 10 | > 10 | > 10 | > 10 | > 10 | > 10 |
| BD55-6427 (protein) chain 1: QVQLVQSGAEVKKPGASVKVSCRTSGYTFSNYGISWVRQAPGQGLEYMGWISAYRGNTNYAQKFQGRLSMATDTSTTTAYMELRNLRSDDTAVYYCARGGAITMSVVPFYHFETWGQGTLVTVSS chain 2: QSALIQPASVSGSPGQSITLSCTGTSDDIGSYNFVSWYQQHPGKAPKLIIYEGSKRPSGISDRFSGSKSGNTASLTISGLQAEDEADYYCCSYAGADTFYVLGTGTTVTVL | > 10 | > 10 | > 10 | > 10 | > 10 | > 10 | 4.25 |
| BD55-6386 (protein) chain 1: QVQLVESGGGVVQPGRSLTLSCAASGFTFSLYAIHWVRQAPGKGLEWVAVISHDVTNKYYADSVKGRFTISRDSSKNTVFLQMNSLRAEDSAVYYCAIRGGSGAVDRGYYFDYWGQGTLVTVSS chain 2: DIQMTQSPSSLSASVGDRVTITCRASQTISTYLNWYQQKPGKAPKLLIYGASSLRSGVPSRFSGSGSGTDFTLTISSLQREDFATYYCQQSYNTRPLTFGAGTKVEIK | > 10 | > 10 | > 10 | > 10 | > 10 | > 10 | 0.0615 |
| BD55-6408 (protein) chain 1: LQLQESGPGLVKPSETLSLTCTVSGGSIRGSNYYWGWIRQPPGKGLEWIANIYFSGITYYNPSLKSRVTISVDTSNNQFSLDLRSVTAADTAVYYCARESGPISGYDNGERYHGMDVWGRGTTVTVSS chain 2: YVLTQPPSVSVAPGQTARITCGGANIGTKSVHWYQQTPGQAPVQVVHDDSDRPSGIPDRFSGSNSGNTATLTISRVEAGDEADYFCQVWDNSRDHSSSWVFGGGTKLTVL | > 10 | > 10 | > 10 | > 10 | > 10 | > 10 | 5.82 |
| BD55-6411 (protein) chain 1: QITLEESGPTLVKPTQTLTLTCTFSGFSLSTTEMGVGWIRQPPGKAPEWLALIYWDDAKRYSPSLESRLTITKDTSKNQVVLRMTNMDPVDTATYYCARWYYDISTAGLYYMDVWGKGTTVTVSS chain 2: DIVMTQTPLSSPVTLGQTASISCKSSQSLVHSDGNTYLSWLQQRPGQPPRVLIYKISNRVSGVPDRFSGSGAVTEFTLKISRVEPEDVGVYYCMQATQFPYEMYTFGQGTKLEIK | > 10 | > 10 | > 10 | > 10 | > 10 | > 10 | 0.0931 |
| BD55-6384 (protein) chain 1: QVQLVESGGGVVQPGRSLRLSCAVSGFTFRNYAIHWVRQAPGKGLEWVAAMSYDGNDQYYPDSVKGRFTISRDNSRNTLFLQMNNLRAEDTAVYYCAKVEGAYCSGGDCLVAAFDYWGPGTLVSVSS chain 2: EIVLTQSPGTLSLSPGERATLSCRASQSVSSNYLAWYQQKPGQAPRLLMSFTSSRATGIPDRFSGSGSGTVFTLTITRLEPEDFAVYYCQQYGTSPLTFGGGTKVEIK | > 10 | > 10 | > 10 | > 10 | > 10 | > 10 | > 10 |
| BD55-6407 (protein) chain 1: QVRLVQSGAEVKKPGASVKVSCQASGGTFSSPDFNWLRQAPGQGPEWMGWMNPSSGDTGYAHKFQGRVTMTRNTSISTAYMELSSLRSEDTAVYYCARGRDKSGWFVADVDYYGMDVWGQGTTVTVSS chain 2: DIQMTQSPSSLSASVGDRVTITCRASQSISYYLNWYQQKPGKAPKFLIYAASSLQSGVPSRFSGSGSGTDFTLTISSLQPEDFATYYCQQGYSTPPTFGQGTRLEIK | > 10 | > 10 | > 10 | > 10 | > 10 | > 10 | > 10 |
| BD55-6406 (protein) chain 1: QLQLQESGPGLVKPSETLSLTCSVSGGSVNSRSYQWGWIRQSPGKGLEWIGSMYYRGTIQYSPSLKSRVTISVDTSKNQVSLNLRSVTAADTAVYYCARCNGDAYFDSWGQGTLVAVSS chain 2: DIQMTQSPSTLSASVGDRVTITCRASQSISRWLAWYQQKPGKAPKLLIYMASILESGVPSRFSGSGSGTDFTLTISSLQPDDFATYYCQQYNSDPYTFGQGTNLEIE | > 10 | > 10 | > 10 | > 10 | > 10 | > 10 | 0.743 |
| BD55-6421 (protein) chain 1: EVQLVESGGGLIQPGGSLRLSCTASGFSVSSKYMSWVRQAPGKGLEWVSLIYSGYSTIYADSVKGRFTISRDSSKNTLNLQMNSLRAEDTAVYYCARGGGDYPWWYFDLWGRGTLVTVSS chain 2: DIQMTQSPSSLSASIGDRVTITCRASQSIDTYLNWYQQKPGKAPNLLIYAASSLQSGVPSRFSGSGSGTDFTLTISSLQPEDLATYYCQLSSSTLTFGGGTKVEIK | > 10 | > 10 | > 10 | > 10 | > 10 | > 10 | > 10 |
